Kdimer by position in the HIV-1 leader RNA

Values reported by Ye et al. 2022 (doi:10.1038/s41594-022-00746-2).

The 5' region of HIV-1 NL4-3 RNA (positions 1-437):
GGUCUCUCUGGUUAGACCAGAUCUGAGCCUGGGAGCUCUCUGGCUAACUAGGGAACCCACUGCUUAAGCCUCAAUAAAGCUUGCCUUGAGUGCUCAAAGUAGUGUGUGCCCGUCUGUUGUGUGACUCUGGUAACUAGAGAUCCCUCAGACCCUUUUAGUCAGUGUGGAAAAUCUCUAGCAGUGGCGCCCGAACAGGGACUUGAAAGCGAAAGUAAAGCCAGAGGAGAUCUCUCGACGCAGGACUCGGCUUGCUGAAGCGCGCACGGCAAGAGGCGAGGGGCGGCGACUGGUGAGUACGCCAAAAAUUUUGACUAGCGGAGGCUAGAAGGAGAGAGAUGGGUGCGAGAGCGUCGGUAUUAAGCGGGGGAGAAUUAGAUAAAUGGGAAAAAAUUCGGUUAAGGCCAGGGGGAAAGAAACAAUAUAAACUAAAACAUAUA

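Mutant RNA libraries with 1G, 2G or 3G starts, with or without cap, were folded at 37 °C for 30 min. High salt was 300 mM KCl and 5 mM MgCl2, low salt 40 mM KCl and 0.1 mM MgCl2; monomer and dimer were parted on a native gel. Mutation frequencies in the two bands give Kdimer.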

Values are log2 Kdimer, the median over the changes at each position: higher means that changes there hinder dimer formation, below 0 that they favour it.
One numbering serves 1G, 2G and 3G.
A position is written with its base.

position | domain | 2G uncapped high-salt | 2G uncapped low-salt | 3G capped high-salt | 3G capped low-salt
G68 | PolyA | 0.39 | 0.07 | 0.12 | -0.50
C69 | PolyA | 0.13 | 0.09 | -0.23 | -0.29
C70 | PolyA | 0.14 | 0.21 | -0.03 | -0.17
U71 | PolyA | 0.28 | 0.02 | -0.10 | -0.05
C72 | PolyA | 0.09 | 0.13 | -0.18 | -0.10
A73 | PolyA | 0.00 | 0.11 | 0.03 | -0.27
A74 | PolyA | 0.04 | 0.14 | 0.02 | 0.00
U75 | PolyA | 0.14 | 0.01 | -0.03 | -0.03
A76 | PolyA | 0.26 | 0.18 | 0.08 | 0.04
A77 | PolyA | 0.11 | 0.04 | -0.09 | 0.20
A78 | PolyA | 0.11 | 0.02 | 0.05 | -0.11
G79 | PolyA | 0.11 | 0.36 | -0.06 | 0.54
C80 | PolyA | -0.15 | -0.08 | -0.22 | 0.32
U81 | PolyA | 0.03 | 0.38 | 0.05 | 0.37
U82 | PolyA | -0.04 | 0.07 | -0.07 | 0.18
G83 | PolyA | -0.14 | -0.28 | -0.11 | -0.20
C84 | PolyA | -0.20 | -0.48 | -0.47 | -0.41
C85 | PolyA | -0.16 | -0.50 | -0.66 | -0.39
U86 | PolyA | 0.24 | 0.08 | -0.09 | -0.01
U87 | PolyA | 0.17 | 0.29 | -0.13 | -0.19
G88 | PolyA | 0.17 | -0.09 | -0.01 | -0.28
A89 | PolyA | 0.13 | 0.39 | 0.01 | 0.23
G90 | PolyA | 0.04 | -0.36 | -0.26 | -0.56
U91 | PolyA | -0.06 | -0.24 | -0.21 | -0.30
G92 | PolyA | 0.40 | 0.64 | 0.46 | 0.51
C93 | PolyA | 0.24 | -0.16 | -0.05 | -0.25
U94 | PolyA | 0.09 | 0.40 | -0.16 | 0.07
C95 | PolyA | -0.03 | 0.23 | -0.07 | 0.50
A96 | PolyA | 0.09 | 0.10 | 0.00 | 0.01
A97 | PolyA | 0.13 | 0.29 | 0.02 | 0.01
A98 | PolyA | -0.04 | 0.14 | -0.18 | -0.13
G99 | PolyA | 0.02 | 0.01 | -0.30 | -0.21
U100 | PolyA | 0.11 | 0.13 | 0.06 | 0.21
A101 | PolyA | 0.57 | 0.28 | 0.57 | 0.13
G102 | PolyA | 0.14 | -0.09 | -0.49 | -0.23
U103 | PolyA | 0.26 | 0.49 | -0.29 | 0.27
G104 | PolyA | 0.01 | 0.06 | -0.22 | -0.24
U105 | U5 | -0.01 | 0.19 | -0.28 | 0.00
G106 | U5 | -0.09 | 0.21 | -0.41 | 0.36
U107 | U5 | -0.04 | 0.66 | 0.32 | 0.78
G108 | U5 | -0.06 | -0.23 | -0.31 | -0.36
C109 | U5 | -0.19 | 0.77 | 0.10 | 1.04